Measurements published in patent US8193167B2, “Pharmacologically active agents containing esterified phosphonates and methods for use thereof” (priority 2004, dated 2012).
Where a name gives a salt, the structure may show the parent alone.

Key:
MCMV strain Smith = test: Plaque reduction assay for antiviral activity, MCMV in MEF cells; assay type: cell-based; settings: SI = CC50/EC50
HCMV strain AD-169 = test: Plaque reduction assay for antiviral activity, HCMV in HFF cells; assay type: cell-based; settings: SI = CC50/EC50
Vaccinia Copenhagen = assay type: cell-based, vaccinia virus (VV)

SMILES	MCMV SI (MCMV strain Smith)	HCMV SI (HCMV strain AD-169)	Vaccinia Copenhagen SI (Vaccinia Copenhagen)
CCCCCCCCCCCCCCCCCCCCCCOP1(=O)COC(Cn2ccc(N)nc2=O)CO1 (mixture of isomers) [DC-cCDV, Docosyl Cyclic Cidofovir]	>36	>3125	
CCCCCCCCCCCCCCCCOP1(=O)COC(Cn2ccc(N)nc2=O)CO1 (mixture of isomers) [HD-cCDV, Hexadecyl Cyclic Cidofovir]	6638	26.8	
Nc1ccn(C[C@@H](CO)OCP(=O)(O)O)c(=O)n1 [CDV, Cidofovir, reference compound]	>7925	264	>10
CCCCCCCCCCCCCCCCCCCCCCOP(=O)([O-])COC(CO)Cn1ccc(N)nc1=O.[Na+] (stereo not drawn) [DC-CDV, Docosyl Cidofovir, Sodium Salt]	995	>26500	
CCCCCCCCCCCCOP(=O)(O)CO[C@H](CO)Cn1ccc(N)nc1=O [DD-CDV, Dodecyl Cidofovir, Sodium Salt]	<10	>322	
CCCCCCCCCCCCCCCCCCCCOP(=O)(O)CO[C@H](CO)Cn1ccc(N)nc1=O [EC-CDV, Eicosyl Cidofovir, Sodium Salt]	7700	5500	28
CCCCCCCCCCCCCCCCCCCCOP1(=O)CO[C@@H](Cn2ccc(N)nc2=O)CO1 (stereo partly drawn) [EC-cCDV, Eicosyl Cyclic Cidofovir]	374	7827	
CCCCCCCCCCCCCCCCOP(=O)([O-])COC(CO)Cn1ccc(N)nc1=O.[Na+] (stereo not drawn) [HD-CDV, Hexadecyl Cidofovir, Sodium Salt]	>7850	>31400	>51
CCCCCCCCOP(=O)(O)CO[C@H](CO)Cn1ccc(N)nc1=O [O-CDV, Octyl Cidofovir, Sodium Salt]	<10	>19	
CCCCCCCCCCCCCCCCCCCCCCCCOP(=O)(O)CO[C@H](CO)Cn1ccc(N)nc1=O [TC-CDV, Tetracosyl Cidofovir, Sodium Salt]	>13	1670	
CCCCCCCCCCCCCCCCCCCCCCCCOP1(=O)CO[C@@H](Cn2ccc(N)nc2=O)CO1 (stereo partly drawn) [TC-cCDV, Tetracosyl Cyclic Cidofovir]	>43	>313	
Nc1ccn(C[C@H]2COP(=O)(O)CO2)c(=O)n1 [cCDV, Cyclic Cidofovir, reference compound]	>1439	>107	
